Amino acid sequences for entries named in this document (tags omitted). A change or cut given only in a name is not applied to a line headed by its entry.
UniProt P69996: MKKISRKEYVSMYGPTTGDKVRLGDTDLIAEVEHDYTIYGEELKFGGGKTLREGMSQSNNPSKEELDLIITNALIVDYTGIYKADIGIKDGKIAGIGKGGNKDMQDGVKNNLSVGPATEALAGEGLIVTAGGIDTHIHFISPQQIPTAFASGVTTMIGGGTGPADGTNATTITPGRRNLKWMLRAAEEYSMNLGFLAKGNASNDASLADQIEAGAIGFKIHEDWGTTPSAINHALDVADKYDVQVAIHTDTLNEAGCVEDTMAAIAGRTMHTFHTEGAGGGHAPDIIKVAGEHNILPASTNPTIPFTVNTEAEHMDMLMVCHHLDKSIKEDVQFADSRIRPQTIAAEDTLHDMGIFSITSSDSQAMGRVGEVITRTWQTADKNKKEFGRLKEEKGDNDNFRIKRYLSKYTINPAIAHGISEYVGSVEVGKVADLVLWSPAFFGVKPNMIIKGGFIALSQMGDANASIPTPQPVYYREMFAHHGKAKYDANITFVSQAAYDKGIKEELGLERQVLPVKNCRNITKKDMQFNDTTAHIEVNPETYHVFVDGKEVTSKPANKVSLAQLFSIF
UniProt P14916: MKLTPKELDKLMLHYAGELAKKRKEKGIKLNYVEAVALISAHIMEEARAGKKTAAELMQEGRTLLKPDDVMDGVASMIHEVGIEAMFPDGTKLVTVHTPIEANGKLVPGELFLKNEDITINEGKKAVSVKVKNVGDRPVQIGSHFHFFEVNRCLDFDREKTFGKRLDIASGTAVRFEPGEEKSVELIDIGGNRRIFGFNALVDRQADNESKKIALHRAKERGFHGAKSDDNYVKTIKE

According to ChEMBL document CHEMBL1152646, “Synthesis, molecular docking and biological evaluation of metronidazole derivatives as potent Helicobacter pylori urease inhibitors” (Bioorg Med Chem, 2009):

Target: Urease subunit alpha/Urease subunit beta (Helicobacter pylori (strain ATCC 700392 / 26695) (Campylobacterpylori)) (UniProt P69996+P14916)
Assay: Inhibition of Helicobacter pylori ATCC 43504 urease assessed as ammonia production at 1 mM after 3 hrs by indophenol method
Outline: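 Crude urease from H. pylori ATCC 43504 grown 24 h at 37 °C microaerobically in brucella broth with 10% heat-inactivated horse serum; cells PBS-washed, stored at -80 °C, sonicated 60 s in water with protease inhibitors, extract mixed 1:1 with glycerol. Enzyme (4 U) preincubated 3 h at room temperature with compound; ammonia measured by indophenol method; percent inhibition.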

Which inhibition does the source give for Cc1ncc([N+](=O)[O-])n1CCOc1c(C(=O)O)cc([N+](=O)[O-])cc1[N+](=O)[O-] here?
The inhibition was 41.5%.
